Laboratory results: the supplement of paper PMC9931576
Human monoclonal antibodies against the spike receptor-binding domain (heavy:light variable regions). IC50 against pseudoviruses bearing the spike of naturally observed variants; lower = stronger; >10 µg/ml means not reached at the top dose. No active / inactive call. The stated detection limit is 0.0005 µg/ml; values near or below 0.001 µg/ml lie at the floor of the assay.

B1: BD55-5879 (protein)
chain 1: QVQLQQWGAGLLKPSETLSLTCAVSGGSLGGSLSSYDWSWIRQPPGMGLEWIGKINHRGGVKYNPSLKSRVTMSVDTSKNQFSLKLSSVTAADTAVYYCARHSGYDPLFDYWGQGTLVTVSS
chain 2: DIQMTQSPSTLSASVGGRVTVTCRASQSIGTWLAWYQQKPGKAPNLLIYKASILESGVPSRFSGSGSGTQFTLTISSLQPDDFATYYCQQYNSDSPYTFGQGTKVEIK
B2: BD55-5880 (protein)
chain 1: EVYLMESGGGLVQPGGSLRLSCAASEFIVSANYMSWVRQAPGKGPEWVSLIFAGGSTFYADSVKGRFTISRDDSKNTLHLQMNSLRAEDTAVYYCARDLGGNGHFDFWGQGTLVTVSS
chain 2: DIQMTQSPSSLSASVGDRVIITCRASQSISNYLNWYQQKPGKAPKLLIYAASSLQSGVPSRFSGSGSGTDFALTISSLQPEDFATYYCQQSYSAPYTFGQGNKLEIK
B3: BD55-5886 (protein)
chain 1: QFQLMQSGPEVKKPGASVRVSCKASGYTFPSYGITWVRQAPGQGLEWMAWISVYNGNTNYAQKFQGRVTMTTDTSTSTVYMELRSLRSDDTAVYYCARDNGAYMDFDLRGRGTLVTVSS
chain 2: QSVLTQPPSASGTPGQRVTISCSGGSSNLGINPVNWYQQLPGTAPRLLIFSGFQRPSGVPDRFSGSQSGTSASLAISGLQPEDEADYYCAAWVDSLNGRVFGGGTKLTVL
B4: BD55-5900 (protein)
chain 1: EVQLVESGGGLVQPGGSLRLSCAASGFTFRNYAMHWVRQAPGKGLEYVSSISSNGGLTFYADSVKGRFTISRDNSKNTLYLQMGSLRPEDMAVYYCAREGGVGQQLILYLDYWGQGTPVTVSS
chain 2: DIQMTQSPSSLSASVGDRVTITCRASQTITNYLNWYQQKPGKAPRLLIYAASTLQSGVPSRFSGGGSGTAFTLTINNLQPEDFATYYCQQSYVTPMYTFGQGTKLEIK
B5: BD55-5901 (protein)
chain 1: EVQLVESGGALIQPGGSLRLSCAASGFTVSDSYMSWVRQAPGKGLEWVSVIYRGGNTYYADSVWGRFTISRDDSKNTLNLQMNRLRAEDTAMYYCARRYRTSWGLDSWGQGTLVSVSS
chain 2: QSALTQPPSASGSPGQSVTISCTGTSSDVGGYNWVSWYQQHPGKAPKLMIDEVSKRPSGVPDRFSGSKSGNTASLTVSGLQSEDEAYYYCSSYAGSNNLVFGGGTKLTVL
B6: BD55-5903 (protein)
chain 1: QVHLVQSGAEVKKPGSSVKVSCKASGDTFSSYGLNWVRQAPGQGLEWMGRIIPIFDRTNYAQNFQGRVTITADKSTNTAYMELSSLRSEDTALYYCARDGSCDFWSGYCRNDTFDIWGQGTMVTVSS
chain 2: DIQMTQSPSAMSASVGDRVTITCRASQGINNYLVWFQQKPGKVPKRLIYAASSLQSGVPSRFSGSGSGTEFTLTISSLQPEDFATYYCLHHNSYPWTFGQGTKVEIK
B7: BD55-5906 (protein)
chain 1: QITLKESGPMVVKPTQTLTLTCTISGFSLSTTEVGVGWIRQPPGKALEWLALIYWDDDKRFSPSLKSRLTITKDSSKNQVVLTMTNMDRLDTATYYCAHSQYDFSIGFSGFDYWGPGTPVTVSS
chain 2: DIVMTQTPLSSPVTLGQPASISCRSSQSLVHSDGNAYLNWLQHRPGQPPRLLIYQISRRFSGVPDRFSGSGAGTDFTLNISRVEAEDVGVYYCMQATQFPHEMYTFGQGTKLEIK
B8: BD55-5914 (protein)
chain 1: QVQLVQSGAEVKKPGASVKVSCKASGYTFANYDIIWVRQANGQGLEWMGWLNPNTGATGYAHKFQGRVTMTRDTSTNIVYMELSSLSSDDSAVYYCAREVVVLPEAARRFDSWGQGTLVTVSS
chain 2: DVQMTQSPSSLSASIGDRVTLTCRASQSITTYLNWYQQRPGKAPKLLIYAASTLQSGVPSRFSGSGSGTDFTLTISSLQREDFATYYCQQSYSTSYSFGQGTKVEIK
B9: BD55-5916 (protein)
chain 1: QVQLVESGGGLVKPGGSLRLSCAASGFTFSDYSMSWVRQAPGKGLEWVEWVSYITSTGTIYYADSVKGRFTISRDNAKNSLYLQMNSLRAEDTAVYYCARSLQLRYFDWVPDYWGQGTLLTVSS
chain 2: ETVMTQSPATLSVSPGEGATLSCRASQSVSSNLAWYQQKPGQAPRLLIYSASTRATGIPARFSGSGSGTEFTLTISSLQSEDFAVYYCQQYHNWPPGRTFGQGTRVEIK
B10: BD55-1128 (protein)
chain 1: EVQLLESGGGLVQRGGSVRLSCAASGFPFVNYAMSWVRQAPGKGLEWVSAISDTGGLRFYADSVKGRFTISRDNSKNTVYLQMSSLRAEDTAVYYCARESMRELVGPNWFDPWGQGTVVTVSS
chain 2: DIQMTQSPSSLSASVGDRVTITCRASQSVSNYLNWYQQRPGKAPKLLIYAASILQSGVPLRFSGSGSGTDFTLTITNLQPEDFATYYCQQSYAAPPWTFGQGTKVEIK
B11: BD55-5921 (protein)
chain 1: LVESGGGSVKPGESLRLSCEGSGFIFPNVWLSWVRQVPGKGLEWVGRIKRQSDGGTADYAAAVKGRFSILRDDSRQEVVLQMNNVKSEDTAVYYCTTGATHYIYTANNFFDTWGQGILVDVSS
chain 2: QSVLTQPPSASGTPGQRVTISCSGGSSNIGSNSVAWYQQVPGAAPKLLIFSDFQRPLGVPDRFFGSRSGTSASLAISRLQSEDGADYYCATWDDSLSGLVFGGGTNLIVL
B12: BD55-5925 (protein)
chain 1: QVQLVQSGADVKKPGASVKVSCKASGYTFTSYYLHWVRQAPGQGLEWMGIINPSGGTIAYAQKFQGRVTMTRDTSTSTVYMELSSLRSEDTAVYYCASDITGGNYGYLQHWGQGTLVTVSS
chain 2: QSVLTQPPSASGTPGQRVTISCSGSRSNIGSNYVFWYQQLPGTAPKLLIYKNNQRPSGVPDRFSGSKSGTSASLAISGLRSEDEADYYCAGWDDSLNGWVFGGGTKLTVL

Target: SARS-CoV-2 Omicron BA.1 spike pseudovirus
Experiment: pseudovirus neutralization IC50; higher = weaker neutralization
Protocol: (§1)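 Single-round VSV luciferase pseudovirus mixed with antibody dilutions for 1 h and put on Huh-7 cells for about a day; IC50 from the dose curve.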

| Binder | pseudovirus neutralization IC50 |
| --- | --- |
| B1 | > 10 µg/mL |
| B2 | > 10 µg/mL |
| B3 | > 10 µg/mL |
| B4 | > 10 µg/mL |
| B5 | > 10 µg/mL |
| B6 | 0.0213 µg/mL |
| B7 | > 10 µg/mL |
| B8 | > 10 µg/mL |
| B9 | > 10 µg/mL |
| B10 | > 10 µg/mL |
| B11 | > 10 µg/mL |
| B12 | > 10 µg/mL |

Target: SARS-CoV-2 Omicron BA.2 spike pseudovirus
Experiment: as above
Protocol: as §1

| Binder | pseudovirus neutralization IC50 |
| --- | --- |
| B1 | > 10 µg/mL |
| B2 | > 10 µg/mL |
| B3 | > 10 µg/mL |
| B4 | > 10 µg/mL |
| B5 | > 10 µg/mL |
| B6 | 0.0238 µg/mL |
| B7 | > 10 µg/mL |
| B8 | > 10 µg/mL |
| B9 | > 10 µg/mL |
| B10 | > 10 µg/mL |
| B11 | > 10 µg/mL |
| B12 | > 10 µg/mL |

Target: SARS-CoV-2 Omicron BA.2.75 spike pseudovirus
Experiment: as above
Protocol: as §1

| Binder | pseudovirus neutralization IC50 |
| --- | --- |
| B1 | > 10 µg/mL |
| B2 | > 10 µg/mL |
| B3 | > 10 µg/mL |
| B4 | > 10 µg/mL |
| B5 | > 10 µg/mL |
| B6 | 0.0201 µg/mL |
| B7 | > 10 µg/mL |
| B8 | > 10 µg/mL |
| B9 | > 10 µg/mL |
| B10 | > 10 µg/mL |
| B11 | > 10 µg/mL |
| B12 | > 10 µg/mL |

Target: SARS-CoV-2 Omicron BA.5 spike pseudovirus
Experiment: as above
Protocol: as §1

| Binder | pseudovirus neutralization IC50 |
| --- | --- |
| B1 | > 10 µg/mL |
| B2 | > 10 µg/mL |
| B3 | > 10 µg/mL |
| B4 | > 10 µg/mL |
| B5 | > 10 µg/mL |
| B6 | > 10 µg/mL |
| B7 | > 10 µg/mL |
| B8 | > 10 µg/mL |
| B9 | > 10 µg/mL |
| B10 | > 10 µg/mL |
| B11 | > 10 µg/mL |
| B12 | > 10 µg/mL |

Target: SARS-CoV-2 Omicron BQ.1.1 spike pseudovirus
Experiment: as above
Protocol: as §1

| Binder | pseudovirus neutralization IC50 |
| --- | --- |
| B1 | > 10 µg/mL |
| B2 | > 10 µg/mL |
| B3 | > 10 µg/mL |
| B4 | > 10 µg/mL |
| B5 | > 10 µg/mL |
| B6 | > 10 µg/mL |
| B7 | > 10 µg/mL |
| B8 | > 10 µg/mL |
| B9 | > 10 µg/mL |
| B10 | > 10 µg/mL |
| B11 | > 10 µg/mL |
| B12 | > 10 µg/mL |

Target: SARS-CoV-2 Omicron XBB spike pseudovirus
Experiment: as above
Protocol: as §1

| Binder | pseudovirus neutralization IC50 |
| --- | --- |
| B1 | > 10 µg/mL |
| B2 | > 10 µg/mL |
| B3 | > 10 µg/mL |
| B4 | > 10 µg/mL |
| B5 | > 10 µg/mL |
| B6 | > 10 µg/mL |
| B7 | > 10 µg/mL |
| B8 | > 10 µg/mL |
| B9 | > 10 µg/mL |
| B10 | > 10 µg/mL |
| B11 | > 10 µg/mL |
| B12 | > 10 µg/mL |

Target: SARS-CoV-2 early D614G spike pseudovirus
Experiment: as above
Protocol: as §1

| Binder | pseudovirus neutralization IC50 |
| --- | --- |
| B1 | 1.8 µg/mL |
| B2 | 0.00529 µg/mL |
| B3 | > 10 µg/mL |
| B4 | > 10 µg/mL |
| B5 | 0.572 µg/mL |
| B6 | 0.00333 µg/mL |
| B7 | 0.0228 µg/mL |
| B8 | > 10 µg/mL |
| B9 | > 10 µg/mL |
| B10 | > 10 µg/mL |
| B11 | > 10 µg/mL |
| B12 | 0.00287 µg/mL |
